Reference: article doi:10.1101/2021.08.09.455663
Construct, isoform or probe ends are uncertain for at least one entry.

How the values were obtained:
[1] = system: pSTAT1d (phosphorylated STAT1 core dimer) + GST-TgIST-R2; experiment: EMSA supershift; conditions: 2nd GAF
[2] = system: pSTAT1d (phosphorylated STAT1 core dimer) + TgIST-T2; experiment: EMSA supershift; conditions: TgIST-T2 titrated onto preformed pSTAT1d-DNA, 2nd GAF
[3] = system: pSTAT1d (phosphorylated STAT1 core dimer) + TgIST-T2; experiment: competition EMSA; conditions: excess cold probe reduces 2nd GAF

Measured: binding result

GATGTATTTCCCAGAAAAGG (double strand) [GAS probe (Fc-gamma receptor gene)]
binds: all assays above
